Anti-infective test results gathered from many reports (values: NIAID ChemDB through PubChem).

All rows: whole-cell or culture tests; agent: Human cytomegalovirus

ECn is the concentration giving n% inhibition of infection, replication or growth. Conditions beyond the fields shown may differ between rows. An empty or dashed field is not shown. a–b is a range or a potency band.

smiles | endpoint | strain or isolate | method | cells | value
CN(Cc1ccc(F)cc1)C(=O)N1C(=O)C[C@@H]1CSc1ncccn1 | EC50 |  | plaque count |  | 8 µM
Nc1nc2c(ncn2COCCO)c(=O)[nH]1 | EC50 | AD169 | virus yield / luciferase | MRC-5 | 24 µM
Nc1ccn(C[C@H]2COP(=O)(O)CO2)c(=O)n1 | EC75 | AD169 (ganciclovir foscarnet-susceptible) | plaque count | MRC-5 | 0.76 µM
[O-][n+]1onc2ncnc(N3CC[N+]4(CC3)CC[N+]3(CCN(c5ncnc6no[n+]([O-])c56)CC3)CC4)c21 | EC50 | AD169 | plaque count | HELF | 0.85 µM
C=C1[C@H](CO)[C@H]1Cn1cnc2c(=O)[nH]cnc21 | EC50 |  |  |  | >100 µM
Nc1ccn(C[C@@H](CO)OCP(=O)(O)O)c(=O)n1.O=C(O)P(=O)(O)O | EC50 | Towne (ganciclovir- foscarnet-susceptible) | plaque count | MRC-5 | 0.9 µM
Nc1ncnc2c1ncn2C[C@@H](CO)OCP(=O)(O)O | EC50 |  | plaque count | WI-38 | 0.3 µM
O=c1[nH]c(=O)n([C@@H]2O[C@H](CO)[C@@H](O)[C@@H]2F)cc1I | EC50 | AD169 | plaque count | MRC-5 | 2.4 µg/mL
Clc1cccn2cc(-c3ccccc3)cc12 | EC50 | AD169 | plaque count | MRC-5 | >100 µM
Nc1nc2c(ncn2COC(CO)CO)c(=O)[nH]1 | EC95 | R56 | virus yield |  | 2.9 µM
COC(=O)c1ccc(CN(C)C(=O)N2C(=O)C[C@@H]2CSc2ncccn2)cc1 | EC50 |  | plaque count |  | 3.4 µM
C=C[C@@](CO)(CCn1cnc2c(N)ncnc21)c1ccccc1 | EC50 |  |  |  | >100 µg/mL
O=c1[nH]c(=O)n(CC=C(CO)CO)cc1I | EC50 |  |  |  | >100 µg/mL
Cc1cn([C@H]2C[C@H](O)[C@@H](CO)O2)c(=S)[nH]c1=O | EC50 | AD169 | plaque count | MRC-5 | 29.3 µM
Nc1nc2c(ncn2COC(CO)CO)c(=O)[nH]1 | EC90 | VR4990 (ganciclovir-resistant) | plaque count |  | 33.7 µM
Cc1ccn2c(CSCCO)cnc2c1 | EC50 | AD169 | plaque count | HEL | >40 µg/mL
c1ccc(-c2cc3ccccn3c2)nc1 | EC50 | AD169 | plaque count | MRC-5 | >100 µM
O=c1[nH]c(=S)n([C@H]2C[C@H](O)[C@@H](CO)O2)cc1Cl | EC50 | AD169 | plaque count | MRC-5 | 211 µM
COc1ccc2c(c1OC)C=[N+]1CCc3cc4c(cc3C1C2)OCO4 | EC50 |  | plaque count | MRC-5 | 0.68 µM
Nc1ccn(CC=C(CO)CO)c(=O)n1 | EC50 |  |  |  | >100 µg/mL
CC(C)Nc1nc2cc(Cl)c(Cl)cc2n1[C@@H]1CO[C@H](CO)[C@H]1O | EC50 | AD169 | hybridisation | MRC-5 | 10 µM
Nc1ccn(C[C@H]2COP(=O)(O)CO2)c(=O)n1.O=C(O)P(=O)(O)O | EC50 | AD169 (ganciclovir foscarnet-susceptible) | plaque count | MRC-5 | 1 µM
Nc1nc(=S)n([C@@H]2O[C@H](CO)[C@@H](O)[C@@H]2O)cc1Br | EC50 | AD169 | plaque count | MRC-5 | 2.81 µM
Nc1cc(OC[C@H](CO)OCP(=O)(O)O)nc(N)n1 | EC50 | AD169 | cytopathic effect | HEL | 130 µM
Cc1nc(N2CCOC[C@@H]2C)nc(-n2ccnc2)c1[N+](=O)[O-] | MIC | Laboratory and clinical isolates |  |  | 0.3–1 µg/mL
CCCCCCCCCCCCCCCCCCOC[C@H](COP(=O)(O)CO[C@H](CO)Cn1ccc(N)nc1=O)OCc1ccccc1 | EC50 | 759rD100 | plaque count | HFF | 0.2 µM
C=C1[C@H](CO)[C@H]1Cn1cnc2c(N)nc(N)nc21 | EC50 |  |  |  | >100 µM
C/C(=C\Cn1cc(C)c(=O)[nH]c1=O)CO | EC50 |  |  |  | >100 µg/mL
Nc1ccn(C[C@@H](CO)OCP(=O)(O)O)c(=O)n1 | EC50 | Cidofovir-resistant | plaque count | HEL | 4.44 µM
Nc1nc(=S)n([C@@H]2O[C@H](CO)[C@@H](O)[C@@H]2O)cc1Cl | EC50 | AD169 | plaque count | MRC-5 | >361 µM
COc1ccc(OC)c(-c2cc3ccccn3c2)c1 | EC50 | AD169 | plaque count | MRC-5 | >100 µM
Nc1ncc2c(ncn2/C=C2/CC2CO)n1 | EC50 |  | ELISA |  | >100 µM
Nc1ccn(C[C@@H](CO)OCP(=O)(O)O)c(=O)n1 | EC50 | TOWNE | plaque count | HFF | 0.3 µM
Nc1ccn(CSC(CO)CO)c(=O)n1 | EC50 | AD169 | plaque count | HFF | >100 µM
CCCCCCCCCCCCOCCCOP(=O)(O)CO[C@H](CO)Cn1ccc(N)nc1=O | EC50 | VR4955 (foscarnet-resistant) | plaque count | HFF | 0.01 µM
CC(=O)c1c(-c2ccc(Cl)c(Cl)c2)cc2ccccn12 | EC50 | AD169 | plaque count | MRC-5 | >100 µM
Nc1ccn(C[C@@H](CO)OCP(=O)(O)O)c(=O)n1 | EC50 | AD169 | plaque count | MRC-5 | 0.04 µg/mL
N#Cc1ccn2cc(-c3ccccc3)cc2c1 | EC50 | AD169 | plaque count | MRC-5 | >100 µM
COc1ccc2c(c1)c(CC(=O)O)c(C)n2C(=O)c1ccc(Cl)cc1 | EC50 | AD169 |  | HFF | >500 µM
Cc1nc(-c2ncn([C@@H]3O[C@H](CO)[C@@H](O)[C@H]3O)c2C(N)=O)no1 | EC50 |  | plaque count | HFF | >100 µM
C/C(=C\Cn1ccc(N)nc1=O)CO | EC50 |  |  |  | >100 µg/mL
C[C@@H](Nc1nc2ccc(Cl)cc2c(=O)o1)c1ccccc1 | EC50 |  | ELISA | HFF | 42 µM
OC[C@H]1OC[C@@H](n2c(Br)nc3cc(Cl)c(Cl)cc32)[C@@H]1O | EC50 | AD169 | hybridisation | MRC-5 | 25 µM
CCCCCCCCCCCCCCCCCCOCCCOP1(=O)CO[C@@H](Cn2ccc(N)nc2=O)CO1 | EC50 | AD169 | plaque count | HFF | 0.002 µM
C[C@H]1[C@H](O)[C@@H](CO)O[C@H]1n1cc(Br)c(N)nc1=O | EC50 | AD169 | plaque count | MRC-5 | >100 µg/mL
Nc1nc2c(ncn2COC(CO)CO)c(=O)[nH]1 | EC90 | AD169 | plaque count | HFF | 58.1 µM
Cc1cn([C@@H]2O[C@H](CO)[C@H]2CO)c(=O)[nH]c1=O | EC50 | TOWNE | plaque count | HFF | >100 µg/mL
O=C(NCCc1ccccc1)C1=Cc2ccncc2CC1 | EC50 | C8805-37 | plaque count | MRC-5 | 6.5 µM
Nc1nc2c(ncn2/C=C2/CC2(CO)CO)c(=O)[nH]1 | EC50 | TOWNE | plaque count | HFF | 2.4 µM
Nc1cc(OCCOCP(=O)(O)O)nc(N)n1 | EC50 | DAVIS | cytopathic effect | HEL | >190 µM
C[C@@H](NC(=O)C1(Cc2ccccc2)CCN1C(=O)OCc1ccccc1)C(N)=O | EC50 | DAVIS | cytopathic effect | HEL | >400 µM
Clc1ccc(-c2cc3ccccn3c2)c(Cl)c1 | EC50 | AD169 | plaque count | MRC-5 | >100 µM
CC(C)Nc1nc2cc(Cl)c(Cl)cc2n1[C@@H]1CO[C@H](CO)C1 | EC50 | AD169 | hybridisation | MRC-5 | 6 µM
Nc1ncc2c(ncn2/C=C2\CC2CO)n1 | EC50 |  | ELISA |  | >100 µM
c1csc(-c2cc3ccccn3c2)c1 | EC50 | AD169 | plaque count | MRC-5 | 12 µM
Nc1ccn([C@@H]2O[C@H](CO)[C@@H](O)[C@H]2O)c(=S)n1 | EC50 | AD169 | plaque count | MRC-5 | >386 µM
Nc1ccn(C[C@@H](CO)OCP(=O)(O)O)c(=O)n1 | EC50 | PAAR | plaque count | MRC-5 | 0.61 µM
CCCCCCOC(=O)c1ccc2cc(-c3ccccc3)cn2c1 | EC50 | AD169 | plaque count | MRC-5 | >100 µM
Nc1nc(N)c(Cl)c(OCCOCP(=O)(O)O)n1 | EC50 | DAVIS | cytopathic effect | HEL | >600 µM
C=C1[C@H](CO)[C@H]1Cn1cnc2c(N)ncnc21 | EC50 |  |  |  | >100 µM
Cc1c(CNC(=O)OC(C)(C)C)ccc2nc(NC3(C(=O)N(C)C)CC3)oc(=O)c12 | EC50 |  | ELISA | HFF | 100 µM
CC(C)Oc1ccccc1CNC(=O)c1ccc2cnccc2n1 | EC50 | C8805-37 | plaque count | MRC-5 | 0.02 µM
Nc1nc2c(ncn2COCOCP(=O)(O)O)c(=O)[nH]1 | EC50 |  | cytopathic effect | MRC-5 | 5 µg/mL
Nc1nc2c(ncn2[C@@H]2C=C[C@H](CO)[C@@H](O)C2)c(=O)[nH]1 | EC50 | LY9990 |  |  | 0.38 µg/mL
C[C@H]1OC[C@@H](n2c(Br)nc3cc(Cl)c(Cl)cc32)[C@@H]1O | EC50 | AD169 | hybridisation | MRC-5 | 11 µM
Cn1cc(C(=O)NCc2ccc(Cl)cc2)c(=O)c2cc(CN3CCOCC3)ccc21 | EC50 | WA | plaque count | HFF | 1.2 µM
COc1cc(OC)c(NC(=S)Nc2ccc(NC(=O)c3ccccc3F)cc2Cl)cc1Cl | EC50 | AD169 | ELISA | HFF | 6 µg/mL
OC[C@H]1O[C@@H](n2c(Br)nc3cc(Cl)c(Cl)cc32)[C@H](O)[C@@H]1O | EC50 | TOWNE | plaque count | HFF | 0.37 µg/mL
C[C@H]1[C@H](O)[C@@H](CO)O[C@H]1n1cc(I)c(N)nc1=O | EC50 | AD169 | plaque count | MRC-5 | >100 µg/mL
COc1ccccc1CNC(=O)C1=Cc2ccncc2CC1 | EC50 | 1117R73-1-2 | plaque count | HFF | 5.6 µM
Nc1nc2c(ncn2COC[C@H](O)CO)c(=O)[nH]1 | EC50 | AD169 | plaque count | MRC-5 | >25 µg/mL

7 of the rows above, restated:

{"smiles": "Nc1nc2c(ncn2COCCO)c(=O)[nH]1", "endpoint": "EC50", "strain or isolate": "AD169", "method": "virus yield / luciferase", "cells": "MRC-5", "value": "24 µM"}
{"smiles": "C[C@H]1OC[C@@H](n2c(Br)nc3cc(Cl)c(Cl)cc32)[C@@H]1O", "endpoint": "EC50", "strain or isolate": "AD169", "method": "hybridisation", "cells": "MRC-5", "value": "11 µM"}
{"smiles": "Nc1nc(=S)n([C@@H]2O[C@H](CO)[C@@H](O)[C@@H]2O)cc1Cl", "endpoint": "EC50", "strain or isolate": "AD169", "method": "plaque count", "cells": "MRC-5", "value": ">361 µM"}
{"smiles": "CN(Cc1ccc(F)cc1)C(=O)N1C(=O)C[C@@H]1CSc1ncccn1", "endpoint": "EC50", "method": "plaque count", "value": "8 µM"}
{"smiles": "C/C(=C\\Cn1cc(C)c(=O)[nH]c1=O)CO", "endpoint": "EC50", "value": ">100 µg/mL"}
{"smiles": "C[C@H]1[C@H](O)[C@@H](CO)O[C@H]1n1cc(Br)c(N)nc1=O", "endpoint": "EC50", "strain or isolate": "AD169", "method": "plaque count", "cells": "MRC-5", "value": ">100 µg/mL"}
{"smiles": "Nc1ncc2c(ncn2/C=C2/CC2CO)n1", "endpoint": "EC50", "method": "ELISA", "value": ">100 µM"}